Measured values from several laboratories, pooled; numbers as filed in NIAID ChemDB.

Shared fields: growth or infection tests; agent: Human cytomegalovirus; read-out: EC50

ECn is the concentration giving n% inhibition of infection, replication or growth. Lines come from different laboratories, so protocols vary. a–b is a range or a potency band.

{"SMILES": "Nc1nc2c(ncn2COC(CO)CO)c(=O)[nH]1", "cell line": "MRC-5", "strain": "Toledo", "method": "plaque count", "result": "1.3 µM"}
{"SMILES": "Nc1nc(=S)n([C@@H]2O[C@H](CO)[C@@H](O)[C@@H]2O)cc1I", "cell line": "MRC-5", "strain": "AD169", "method": "plaque count", "result": "0.78 µM"}
{"SMILES": "Nc1nc(=O)n([C@@H]2O[C@H](CO)[C@@H](O)[C@@H]2F)cc1I", "cell line": "HFF", "strain": "AD169", "method": "plaque count", "result": "0.6 µM"}
{"SMILES": "O=c1[nH]c(=O)n([C@H]2C[C@H](O)[C@@H](CO[P@]3(=O)OCc4cccc(-c5ccccc5)c4O3)O2)cc1/C=C/Br", "cell line": "HELF", "strain": "AD169", "method": "plaque count", "result": ">128 µg/mL"}
{"SMILES": "Cc1cncc2ccc(C(=O)NCc3ccccc3OC(C)C)nc12", "cell line": "MRC-5", "strain": "D16 (ganciclovir-resistant UL54 mutant)", "method": "plaque count", "result": "0.1 µg/mL"}
{"SMILES": "Cn1cc(C(=O)NCc2ccc(Cl)cc2)c(=O)c2cc(CN3CCOCC3)ccc21", "cell line": "VERO", "strain": "AD169-M1", "method": "plaque count", "result": "4 µM"}
{"SMILES": "Nc1nc(NC2CC2)c2ncn(/C=C3/C[C@@H]3CO)c2n1", "cell line": "HFF", "strain": "AD169", "method": "plaque count", "result": "1.9 µM"}
{"SMILES": "Nc1nc(=S)n([C@H]2C[C@H](O)[C@@H](CO)O2)cc1Cl", "cell line": "MRC-5", "strain": "AD169", "method": "plaque count", "result": ">312 µM"}
{"SMILES": "Nc1nc(OCC2CC2)c2ncn(/C=C3/C[C@@H]3CO)c2n1", "cell line": "HFF", "strain": "AD169", "method": "plaque count", "result": "1.7 µM"}
{"SMILES": "Nc1nc(=S)n([C@H]2C[C@H](O)[C@@H](CO)O2)cc1Br", "cell line": "MRC-5", "strain": "AD169", "method": "plaque count", "result": ">272 µM"}
{"SMILES": "CO[C@H]1C[C@H](n2cc(/C=C/Br)c(=O)[nH]c2=O)O[C@@H]1COP1(=O)OCc2cccc(C)c2O1", "cell line": "HELF", "strain": "AD169", "method": "plaque count", "result": ">64 µg/mL"}
{"SMILES": "CCCCCCCCCCCCCCCCOCCCOP(=O)(O)OCC(CO)OCn1cnc2c(=O)[nH]c(N)nc21", "cell line": "MRC-5", "strain": "AD169", "result": "0.6 µM"}
{"SMILES": "Nc1ncnc2c1ncn2[C@H]1C[C@H](O)[C@]2(CO)C[C@H]12", "cell line": "HFF", "method": "cytopathic effect", "result": "3.1 µg/mL"}
{"SMILES": "Nc1cc(OCCOCP(=O)(O)O)nc(N)n1", "cell line": "HEL", "strain": "AD169", "method": "cytopathic effect", "result": ">190 µM"}
{"SMILES": "CCOC(=O)CC1OP(=O)(OC[C@H]2O[C@@H](n3cc(/C=C/Br)c(=O)[nH]c3=O)C[C@@H]2O)Oc2cccc(Cl)c21", "cell line": "HELF", "strain": "AD169", "method": "plaque count", "result": ">128 µg/mL"}
{"SMILES": "CC/C=C\\Cn1c(=O)sc2c(=O)[nH]c(N)nc21", "strain": "48041 (DHPG-R)", "method": "plaque count", "result": "0.16 µM"}
{"SMILES": "O=c1[nH]c(=O)n([C@H]2C[C@H](O)[C@@H](COP3(=O)OCc4cccc(-c5ccccc5)c4O3)O2)cc1/C=C/Br", "cell line": "HELF", "strain": "AD169", "method": "plaque count", "result": ">128 µg/mL"}
{"SMILES": "Nc1nc(NC2CCCCC2)c2ncn(/C=C3/C[C@@H]3CO)c2n1", "cell line": "HFF", "strain": "AD169", "method": "plaque count", "result": ">318 µM"}
{"SMILES": "Cc1cn([C@@H]2O[C@@H](CO)[C@H](O)[C@H]2O)c(=O)[nH]c1=O", "cell line": "MRC-5", "strain": "AD169", "method": "cytopathic effect", "result": ">1000 µM"}
{"SMILES": "Cc1cn([C@H]2C[C@@H](N=[N+]=[N-])[C@@H](CO)O2)c(=O)[nH]c1=O", "strain": "AD169", "method": "plaque count", "result": ">100 µM"}
{"SMILES": "Nc1nc2c(ncn2[C@@H]2C[C@H](CO)[C@H]2O)c(=O)[nH]1", "method": "plaque count", "result": "2–4 µM"}
{"SMILES": "Nc1cc(OC[C@H](CO)OCP(=O)(O)O)nc(N)n1", "cell line": "HEL", "strain": "DAVIS", "method": "cytopathic effect", "result": "120 µM"}
{"SMILES": "CC#Cc1cn([C@H]2C[C@H](O)[C@@H](CO)O2)c(=O)[nH]c1=O", "cell line": "VERO", "method": "plaque count", "result": ">100 µM"}
{"SMILES": "Cc1cncc2ccc(C(=O)NCc3ccccc3OC(C)C)nc12", "cell line": "HS68", "result": "0.004 µg/mL"}
{"SMILES": "O=c1[nH]c(=O)n([C@H]2C[C@H](O)[C@@H](COP3(=O)OCc4c(ccc5ccccc45)O3)O2)cc1/C=C/Br", "cell line": "HELF", "strain": "AD169", "method": "plaque count", "result": ">128 µg/mL"}
{"SMILES": "Nc1nc2c(ncn2COC(CO)CO)c(=O)[nH]1", "cell line": "NHDF", "method": "plaque count", "result": "20 µM"}
{"SMILES": "Nc1nc2c(ncn2C[C@@H]2CC[C@@H](P(=O)(O)O)O2)c(=O)[nH]1", "cell line": "WI-38", "method": "plaque count", "result": "0.1–1 µg/mL"}
{"SMILES": "Nc1nc(=S)n([C@@H]2O[C@H](CO)[C@@H](O)[C@@H]2O)cc1F", "cell line": "MRC-5", "strain": "AD169", "method": "plaque count", "result": ">361 µM"}
{"SMILES": "O=c1[nH]c(=O)n([C@H]2C[C@H](O)[C@@H](COP3(=O)OCc4ccc5ccccc5c4O3)O2)cc1/C=C/Br", "cell line": "HELF", "strain": "AD169", "method": "plaque count", "result": ">128 µg/mL"}
{"SMILES": "Nc1nc2c(ncn2C=C2CC2CO)c(=O)[nH]1", "strain": "VR4760 (ganciclovir-resistant)", "method": "plaque count", "result": "2 µM"}
{"SMILES": "OC[C@H]1O[C@@H](c2ccccc2)C[C@@H]1O", "cell line": "HEL", "strain": "AD169", "method": "plaque count", "result": ">100 µg/mL"}
{"SMILES": "CCCOc1nc(N)nc2c1ncn2/C=C1/C[C@@H]1CO", "cell line": "HFF", "strain": "AD169", "method": "plaque count", "result": "2 µM"}
{"SMILES": "O=c1[nH]c(=S)n([C@H]2C[C@H](O)[C@@H](CO)O2)cc1Br", "cell line": "MRC-5", "strain": "AD169", "method": "plaque count", "result": "114 µM"}
{"SMILES": "Nc1nc2c(ncn2C[C@@H]2CO[C@H](P(=O)(O)O)O2)c(=O)[nH]1", "result": "45 µg/mL"}
{"SMILES": "OC[C@H]1O[C@@H](c2ccccc2)[C@H](O)[C@@H]1O", "cell line": "HEL", "strain": "AD169", "method": "plaque count", "result": ">50 µg/mL"}
{"SMILES": "Nc1nc2c(ncn2C[C@@H]2CC[C@H](P(=O)(O)O)O2)c(=O)[nH]1", "cell line": "WI-38", "method": "plaque count", "result": "0.5–1 µg/mL"}
{"SMILES": "Nc1ccn([C@H]2C[C@@H](O)[C@H](CO)O2)c(=O)n1", "cell line": "MRC-5", "strain": "AD169", "method": "cytopathic effect", "result": ">10 µM"}
{"SMILES": "CO[C@H]1[C@H]2O[Si](C(C)C)(C(C)C)O[Si](C(C)C)(C(C)C)OC[C@@H]2O[C@@H]1c1ccccc1", "cell line": "HEL", "strain": "DAVID", "method": "plaque count", "result": "1.3 µg/mL"}

A second listing of 5 rows from above:

SMILES | cell line | strain | method | result
Cn1cc(C(=O)NCc2ccc(Cl)cc2)c(=O)c2cc(CN3CCOCC3)ccc21 | VERO | AD169-M1 | plaque count | 4 µM
CO[C@H]1C[C@H](n2cc(/C=C/Br)c(=O)[nH]c2=O)O[C@@H]1COP1(=O)OCc2cccc(C)c2O1 | HELF | AD169 | plaque count | >64 µg/mL
O=c1[nH]c(=O)n([C@H]2C[C@H](O)[C@@H](COP3(=O)OCc4c(ccc5ccccc45)O3)O2)cc1/C=C/Br | HELF | AD169 | plaque count | >128 µg/mL
Nc1ccn([C@H]2C[C@@H](O)[C@H](CO)O2)c(=O)n1 | MRC-5 | AD169 | cytopathic effect | >10 µM
O=c1[nH]c(=O)n([C@H]2C[C@H](O)[C@@H](COP3(=O)OCc4ccc5ccccc5c4O3)O2)cc1/C=C/Br | HELF | AD169 | plaque count | >128 µg/mL